Anti-infective test results gathered from many reports (values: NIAID ChemDB through PubChem).

Common to all: whole-cell or culture tests; species: Candida albicans; endpoint: MIC

Two numbers with a dash give a range or band. Neighbouring rows are from separate reports. An empty or dashed field is not shown.

| SMILES | strain | method | result |
|---|---|---|---|
| COC(=O)C(CCSC)NC1=CC(=O)c2ccccc2C1=O | - | - | >50 µg/mL |
| Cc1c(Sc2ccccc2)[n+](=O)c2cc(Cl)ccc2n1[O-] | Clinical isolate 10 | - | 31.25 µg/mL |
| NC(=NNc1ccccc1)c1cnccn1 | - | broth dilution | 32 µg/mL |
| COCc1nc2ccccc2n1CC(O)(Cn1cncn1)c1ccc(F)cc1F | - | - | 25–50 µg/mL |
| Cc1ccc(N2NOC(=O)C2S(=O)(=O)Nc2nc3ccc([N+](=O)[O-])cc3s2)cc1 | MTCC 227 | broth dilution | 100 µg/mL |
| CC(C)=CCC/C(C)=C/Cc1c(O)cc(O)c(C(=O)c2ccccc2)c1O | - | - | 25 µg/mL |
| Cc1ccc(C(O)c2cccc(C(O)CCn3ccnc3)c2)cc1 | RTCC 1003 | broth dilution | >64 µg/mL |
| CCCCCCCCCCCCCCCCCCCCCC[C@H](O)CCCCCC | - | broth dilution | 500 µM |
| NNC(=O)Cc1nnc2nnc3c(n12)Nc1ccccc1C3 | ATCC 2091 | - | 200 µg/mL |
| O=c1c2cc(O)ccc2oc2cc(O)cc(O)c12 | - | - | >25 µg/mL |
| OC(Cn1cncn1)(Cn1cnc2ccc(C(F)(F)F)cc21)c1ccc(F)cc1F | - | - | 50–100 µg/mL |
| CC(N1CCN(c2ccc(-n3cnnn3)cc2)C1=O)[C@@](O)(Cn1cncn1)c1ccc(F)cc1F | CA383 | - | >16 µg/mL |
| CC1(C)C/C(=N\NC(=O)c2ccccc2)c2cc(/C=N/Nc3nnc4c(n3)Nc3ccccc3N4)[nH]c2C1 | ATCC 2091 | - | 200 µg/mL |
| CC(C)=CCc1c(O)cc(O)c2oc3cc(O)cc(O)c3c(=O)c12 | - | - | >25 µg/mL |
| CCOc1cc2c(cc1F)n([O-])c(C)c(S(=O)(=O)c1ccccc1)[n+]2=O | Clinical isolate 1 | - | 62.5 µg/mL |
| OC(Cn1cncn1)(Cn1c(Cc2ccccc2)nc2ccccc21)c1ccc(F)cc1F | - | - | 100–200 µg/mL |
| COC(=O)[C@H]1[C@@H]2C[C@@H](O[C@@H]3O[C@H](C)[C@@H](O)[C@H](N)[C@@H]3O)/C=C/C=C/C=C/C=C/C=C/C=C/C=C/[C@H](C)[C@@H](O)[C@H](C)[C@H](C)OC(=O)C[C@H](O)C[C@H](O)[C@@H](O)CC[C@H](O)C[C@H](O)C[C@](O)(C[C@@H]1O)O2 | - | - | 3.1 µM |
| COc1ccc(-c2nc3ccccc3n2CC(O)(Cn2cncn2)c2ccc(F)cc2F)cc1 | - | - | 50–100 µg/mL |
| CN(Cc1cccc2ccsc12)/N=C\c1ccc2ccccc2c1 | - | - | >64 µg/mL |
| C[C@@H](N1CCN(c2ccc(-n3cnnn3)cc2)C1=O)[C@](O)(Cn1cncn1)c1ccc(F)cc1F | TA | - | 1 µg/mL |
| COc1cc(/C=N\N(C)Cc2cccc3ccccc23)cc(OC)c1OC | - | - | >64 µg/mL |
| Cc1cc(-c2c(N=O)c(C)nn2-c2ccccc2)no1 | - | - | >200 µM |
| O=c1c2cccc(O)c2oc2cccc(O)c12 | - | - | >25 µg/mL |
| N#CC1=C(N)OC2=C(CSc3ccccc32)C1c1ccc(-c2ccccc2)cc1 | - | - | 50 µg/mL |
| Cc1c(S(=O)(=O)c2ccccc2)[n+](=O)c2ccccc2n1[O-] | Clinical isolate 3 | - | 62.5 µg/mL |
| N#CC1=C(c2ccccc2)C2=C(NC1O)c1ccccc1SC2 | - | - | 50 µg/mL |
| O=c1c2ccc(O)cc2oc2cccc(O)c12 | - | - | >25 µg/mL |
| CC1=NN(c2nnc3c(n2)Nc2ccccc2C3)C(=O)C1=C(C)C | ATCC 2091 | - | 200 µg/mL |
| O=C(Nc1c(F)cccc1F)OCCCN1CCN(c2nc3ccccc3s2)CC1 | CY3003 | - | 0.83 µg/mL |
| O=C(CCn1ccnc1)c1ccc2ccccc2c1 | RTCC 1003 | broth dilution | >64 µg/mL |
| CC(C)=CCc1c(O)ccc2oc3cc(O)cc(O)c3c(=O)c12 | - | - | >25 µg/mL |
| O=[N+]([O-])c1ccc2ncn(CC(O)(Cn3cncn3)c3ccc(F)cc3F)c2c1 | - | - | 100–200 µg/mL |
| O=C(CCn1ccnc1)c1ccc(Br)cc1 | RTCC1024 | broth dilution | >64 µg/mL |
| NC(=NNS(=O)(=O)c1ccccc1)c1cncc(Cl)n1 | - | broth dilution | >256 µg/mL |
| CCCn1nc(-c2cc(C)on2)c(N=O)c1C | - | - | 22 µM |
| Cc1ccc(N2NOC(=O)C2S(=O)(=O)Nc2ccc(-n3c(-c4cccc(Br)c4)nc4ccccc4c3=O)cc2)cc1 | MTCC 227 | broth dilution | 500 µg/mL |
| CCCCC/C=C/C=N\N(C)Cc1cccc2ccccc12 | - | - | >64 µg/mL |
| COc1c(O)ccc2c(=O)c3c(O)cc(O)cc3oc12 | - | - | >25 µg/mL |
| CCOc1ccc2nc(NS(=O)(=O)C3C(=O)ONN3c3ccc(C)cc3)sc2c1 | MTCC 227 | broth dilution | 1000 µg/mL |
| Clc1ccc(COC(Cn2ccnc2)c2ccc(Cl)cc2Cl)c(Cl)c1 | - | - | 7 µM |
| CN(Cc1cccc2ccsc12)/N=C\c1ccccc1 | - | - | >64 µg/mL |
| CCn1nc(-c2cc(C)on2)cc1C | - | - | >200 µM |
| CN(Cc1cccc2ccccc12)/N=C\Cc1ccccc1 | - | - | >64 µg/mL |
| CC1CCCC[C@H]2C(=O)CC[C@H]3OC(/C=C/C=C/C=C/C(=O)O)=C(C(=O)O1)[C@@H]32 | - | - | >64 µg/mL |
| CCOc1cc2c(cc1F)n([O-])c(C)c(Cl)[n+]2=O | Clinical isolate 13 | - | 62.5 µg/mL |
| COc1ccc(C2C(C#N)=C(N)OC3=C2CSc2ccccc23)cc1 | - | - | 100 µg/mL |
| COc1ccc(-c2nc3ccccc3c(=O)n2-c2ccc(NS(=O)(=O)C3C(=O)ONN3c3ccc(C)cc3)cc2)cc1[N+](=O)[O-] | MTCC 227 | broth dilution | 250 µg/mL |
| N#CC1=C(N)OC2=C(CSc3ccc(Cl)cc32)C1c1ccccc1 | - | - | 50 µg/mL |
| O=C(CCn1ccnc1)c1ccc(-c2ccccc2)cc1 | RTCC 1003 | broth dilution | 8 µg/mL |
| COc1cncc(/C(N)=N/N=C(\N)c2cnccn2)n1 | - | broth dilution | >256 µg/mL |
| COc1nc2c(c(-c3ccccc3)c1C#N)CSc1ccccc1-2 | - | - | 50 µg/mL |
| O=C1C(=O)c2c(O)ccc(O)c2C(O)=C1Sc1ncc[nH]1 | - | - | >50 µg/mL |
| COc1ccc(C2=CC(c3nnc4c(n3)Nc3ccccc3N4)C(c3cc4c([nH]3)CC(C)(C)CC4=O)=C2)cc1 | ATCC 2091 | - | 200 µg/mL |

7 of the rows above, restated:

{"SMILES": "CCCCC/C=C/C=N\\N(C)Cc1cccc2ccccc12", "result": ">64 µg/mL"}
{"SMILES": "CC(N1CCN(c2ccc(-n3cnnn3)cc2)C1=O)[C@@](O)(Cn1cncn1)c1ccc(F)cc1F", "strain": "CA383", "result": ">16 µg/mL"}
{"SMILES": "N#CC1=C(N)OC2=C(CSc3ccccc32)C1c1ccc(-c2ccccc2)cc1", "result": "50 µg/mL"}
{"SMILES": "CCCCCCCCCCCCCCCCCCCCCC[C@H](O)CCCCCC", "method": "broth dilution", "result": "500 µM"}
{"SMILES": "COc1c(O)ccc2c(=O)c3c(O)cc(O)cc3oc12", "result": ">25 µg/mL"}
{"SMILES": "COc1ccc(C2C(C#N)=C(N)OC3=C2CSc2ccccc23)cc1", "result": "100 µg/mL"}
{"SMILES": "COc1nc2c(c(-c3ccccc3)c1C#N)CSc1ccccc1-2", "result": "50 µg/mL"}